The subject of the data set is H9 cells. As to the kind of experiment: Survival/viability of HIV-infected H9 cells (trypan blue exclusion), % control.
The mark [1] stands for this setting: Table VIII, conc. 5 (g/ml as printed), 5760 min.
Setting [2] is: Table VIII, conc. 10 (g/ml as printed), 5760 min.
The mark [3] stands for this setting: Table VIII, conc. 20 (g/ml as printed), 5760 min.

The structures appear in SMILES notation.

For `C[C@@H]1[C@H](O)[C@@H](C)/C=C/C=C/CC/C=C/C=C/C=C/C=C/[C@H](O[C@@H]2O[C@H](C)[C@@H](O)[C@H](N)[C@@H]2O)C[C@@H]2O[C@](O)(C[C@@H](O)C[C@@H](O)[C@H](O)CC[C@@H](O)C[C@@H](O)CC(=O)O[C@H]1C)C[C@H](O)[C@H]2C(=O)O` [Amphotericin A, reference compound], the “Cell Survival (% Control)” value (Table IV, conc. 0.01 (g/ml as printed), added with HIV, 4 days) is on record as 62 % Control; the “Cell Survival (% Control)” value (Table IV, conc. 0.1 (g/ml as printed), added with HIV, 4 days) came to 80 % Control; the “Cell Survival (% Control)” value (Table IV, conc. 10 (g/ml as printed), added with HIV, 4 days) came out at 88 % Control.

For the compound `CCC(C)C1OC(=O)/C=C/C=C/C=C/C=C/C=C/CC(O)C(C)C(O)CC(O)CC(O)CC(O)CC(O)CC(O)CC(O)/C=C/C1C` (centres unmarked) [Faeriefungin B], the “Cell Survival (% Control)” value was determined as 0 % Control under setting [1] and 12 % Control under setting [2].

As for `CC(C)C1OC(=O)/C=C/C=C/C=C/C=C/C=C/CC(O)C(C)C(O)CC(O)CC(O)CC(O)CC(O)CC(O)CC(O)/C=C/C1C` (centres unmarked) [Mycoticin A, reference compound], the “Cell Survival (% Control)” value is, setting by setting: under setting [1], 0 % Control; under setting [2], 4 % Control; under setting [3], 14 % Control.

As to `CCC(C)C1OC(=O)/C=C/C=C\C=C\C=C\C=C/CC(O)C(C)C(O)CC(O)CC(O)CC(O)CC(O)CC(O)CC(O)/C=C/C1C` (centres unmarked) [Mycoticin B], the “Cell Survival (% Control)” value is, setting by setting: under setting [1], 0 % Control; under setting [2], 10 % Control; under setting [3], 15 % Control.

(Values after patent US5159002A, “Method for purifying dermostatin A and dermostatin B” (Xechem Inc., priority 1990, dated 1992).)
